The supplement of paper PMC9931576
Numbering of substitutions follows the chain as printed. Human monoclonal antibodies against the spike receptor-binding domain (heavy:light variable regions). IC50 against pseudoviruses bearing the spike of naturally observed variants; lower = stronger; >10 µg/ml means not reached at the top dose. No active / inactive call. The stated detection limit is 0.0005 µg/ml; values near or below 0.001 µg/ml lie at the floor of the assay.

B1: BD-758 (protein)
chain 1: QVQLVESGGGVVQPGRSLRLSCAASGFTFSSYGMHWVRQAPGKGLEWVAVIWFDGIDKYYTDSVKGRFSISRDNSKNTMYLQMNSLRVGDTAVYYCAKDMIRGETHFNYYMDVWGKGTTVTVSS
chain 2: QSALTQPRSVSGSPGQSVTISCTGTSSDIGDYDYVSWYQQHPGKAPKFMIYDVNKRPSGVPDRFSGSKSGNTASLTISGLQAEDEADYYCCSYAGSFVVFGGGTKLTIL
B2: BD55-745 (protein)
chain 1: QVQLVQSGAEVKKPGASVKVSCKASGYTFTSYYMHWVRQAPGQGLEWMGVINPGAGSTSYAQKFQGRVTMTRDTSTSTVYMDLNSLRSEDTAVYYCARDQVGVPATDGMDVWGQGTTVTVSS
chain 2: EIVLTQSPATLSLSPGERATLSCRASQSVSSYLAWYQQKPGQAPRLLIYDASNRATGIPARFSGSGSGTDFTLTISSLEPEDFAVYYCQQRSNWQYTFGQGTKLEIK
B3: BD55-696 (protein)
chain 1: QLQLQESGPGLVKPSETLSLTCTVSGSSISSSSYYWGWIRQPPGKGLEWIGSIYYSGSTYYNPSLKSRVTMSVDTSKNQFSLKLSSVTAADTAVYYCARLIRWSLGGYSDYWGQGTLVTVSS
chain 2: QSALTQPASVSGSPGQSITISCTGTSSDVGSYNLVSWYQQHPGKAPKLMIYEGSKRPSGVSYRFSGSKSGNTASLTISGLQAEDEADYYCCSYAGSSIVVFGGGTKLTVL
B4: BD-923 (protein)
chain 1: EVLLVESGGGLVQPGRSLRLSCTASGFTFEDYAMHWVRQAPGKGLEWVSGMSWNSGTIGYADSVRGRFIISRDNAKNSLYLQMNSLRAEDTALYYCGKDRGFGESLYYVMDVWGQGATVTVSS
chain 2: B3 chain 2 with S31V, L34Y, E52N, G53V, K55D, Y62N, C91S, A94T, G95S, V100I
B5: BD55-988 (protein)
chain 1: QVQLQQWGAGLLKPSDTLSRTCAVYGGSFSNYYWSWIRQFPGKGLEWIAEISDGGSTNYNPSLKSRVTISVDPSKKQFSLTLRSVTAADTAVYFCARGRRHYFDRPGFNHYYFYGLDVWAQGTTVIVSS
chain 2: SSELTQDPAVSVALGQTVTITCQGDSLRSHDACWYQQKSGQAPVLLIYDKDSRPSGIPDRFSGSGSGNTASLTITGAQAEDEADYYCNSRDSPGENLLFGGGTKVTVL
B6: BD-804 (protein)
chain 1: EVQLVESGGGLVKPGGSLRLSCAASGFTFSNYDMNWVRQAPGKGLEWVSSISSSSTYTHYADSVKGRFTISRDNAKNSLYLQMNSLRAEDTAVYYCARDRAYRLGELSSLWGDDAFDIWGQGTMVTVSS
chain 2: AVWMTQSPSLLSASTGDRVTVSCRMSQDISSYLAWYQQKPGKAPELLIYAAFTLQSGVPSRFSGSGSGTEFTLTISSLQSEDFATYYCQQYYSFPHTFGQGTKLE
B7: BD55-319 (protein)
chain 1: QVQLQESGPGLVKPSETLSLTCTVSGGSISSYYWSWIRQTPGKGLEWIGYIYYSGSTKYNPSLKSRVTISVDTSKKQFSLKLSSVTAADTAVYYCARSAVPVAGVDYWGQGTLVTVSS
chain 2: NFMLTQPHSVSESPGKTVTISCTGSSGSIASNYVQWYQQRPGSAPTTVIYEDNQRPSGVPDRFSGSIDSSSNSASLTISGLKTEDEADYYCQSYDSSFWVFGGGTKVTVL

These binders were tested against SARS-CoV-2 Omicron BA.1 spike pseudovirus (assay: pseudovirus neutralization IC50; higher = weaker neutralization).
Description: (§1)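 Single-round VSV luciferase pseudovirus mixed with antibody dilutions for 1 h and put on Huh-7 cells for about a day; IC50 from the dose curve.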

B1 was tested. Which “pseudovirus neutralization IC50” value did it give?
The value was > 10 µg/mL.

Which “pseudovirus neutralization IC50” value does the source give for B2 here?
Its value is > 10 µg/mL.

Which “pseudovirus neutralization IC50” value does the source give for B3 here?
Its value is > 10 µg/mL.

How did the “pseudovirus neutralization IC50” value turn out when B4 was run?
Its value is 1.22 µg/mL.

For B5, which “pseudovirus neutralization IC50” value is on record?
The value was > 10 µg/mL.

How did the “pseudovirus neutralization IC50” value turn out when B6 was run?
The value was 0.151 µg/mL.

With B7 as the binder, how does the “pseudovirus neutralization IC50” value read?
Its value is > 10 µg/mL.

What follows are binders tested against SARS-CoV-2 Omicron BA.2 spike pseudovirus in the same assay as above.
Description: as §1

For B1, which “pseudovirus neutralization IC50” value is on record?
The value was > 10 µg/mL.

For B2, which “pseudovirus neutralization IC50” value is on record?
The value was > 10 µg/mL.

With B3 as the binder, how does the “pseudovirus neutralization IC50” value read?
Its value is > 10 µg/mL.

How did the “pseudovirus neutralization IC50” value turn out when B4 was run?
Its value is 0.753 µg/mL.

Which “pseudovirus neutralization IC50” value does the source give for B5 here?
Its value is > 10 µg/mL.

For B6, which “pseudovirus neutralization IC50” value is on record?
The value was 0.161 µg/mL.

Which “pseudovirus neutralization IC50” value does the source give for B7 here?
Its value is > 10 µg/mL.

What follows are binders tested against SARS-CoV-2 Omicron BA.2.75 spike pseudovirus in the same assay as above.
Description: as §1

How did the “pseudovirus neutralization IC50” value turn out when B1 was run?
Its value is > 10 µg/mL.

Which “pseudovirus neutralization IC50” value does the source give for B2 here?
Its value is > 10 µg/mL.

Which “pseudovirus neutralization IC50” value does the source give for B3 here?
Its value is > 10 µg/mL.

With B4 as the binder, how does the “pseudovirus neutralization IC50” value read?
Its value is 1.01 µg/mL.

How did the “pseudovirus neutralization IC50” value turn out when B5 was run?
Its value is > 10 µg/mL.

For B6, which “pseudovirus neutralization IC50” value is on record?
Its value is 0.264 µg/mL.

Which “pseudovirus neutralization IC50” value does the source give for B7 here?
The value was > 10 µg/mL.

The binders below were run against SARS-CoV-2 Omicron BA.5 spike pseudovirus in the same assay as above.
Description: as §1

Which “pseudovirus neutralization IC50” value does the source give for B1 here?
Its value is > 10 µg/mL.

With B2 as the binder, how does the “pseudovirus neutralization IC50” value read?
The value was > 10 µg/mL.

How did the “pseudovirus neutralization IC50” value turn out when B3 was run?
Its value is > 10 µg/mL.

B4 was tested. Which “pseudovirus neutralization IC50” value did it give?
The value was > 10 µg/mL.

How did the “pseudovirus neutralization IC50” value turn out when B5 was run?
Its value is > 10 µg/mL.

For B6, which “pseudovirus neutralization IC50” value is on record?
The value was 0.354 µg/mL.

Which “pseudovirus neutralization IC50” value does the source give for B7 here?
The value was > 10 µg/mL.

These binders were tested against SARS-CoV-2 Omicron BQ.1.1 spike pseudovirus in the same assay as above.
Description: as §1

Which “pseudovirus neutralization IC50” value does the source give for B1 here?
The value was > 10 µg/mL.

Which “pseudovirus neutralization IC50” value does the source give for B2 here?
Its value is > 10 µg/mL.

For B3, which “pseudovirus neutralization IC50” value is on record?
The value was > 10 µg/mL.

B4 was tested. Which “pseudovirus neutralization IC50” value did it give?
The value was > 10 µg/mL.

Which “pseudovirus neutralization IC50” value does the source give for B5 here?
The value was > 10 µg/mL.

Which “pseudovirus neutralization IC50” value does the source give for B6 here?
The value was > 10 µg/mL.

B7 was tested. Which “pseudovirus neutralization IC50” value did it give?
The value was > 10 µg/mL.

The binders below were run against SARS-CoV-2 Omicron XBB spike pseudovirus in the same assay as above.
Description: as §1

With B1 as the binder, how does the “pseudovirus neutralization IC50” value read?
Its value is > 10 µg/mL.

With B2 as the binder, how does the “pseudovirus neutralization IC50” value read?
Its value is > 10 µg/mL.

How did the “pseudovirus neutralization IC50” value turn out when B3 was run?
Its value is > 10 µg/mL.

Which “pseudovirus neutralization IC50” value does the source give for B5 here?
The value was > 10 µg/mL.

For B6, which “pseudovirus neutralization IC50” value is on record?
The value was > 10 µg/mL.

B7 was tested. Which “pseudovirus neutralization IC50” value did it give?
Its value is > 10 µg/mL.

Each binder was assayed against SARS-CoV-2 early D614G spike pseudovirus in the same assay as above.
Description: as §1

How did the “pseudovirus neutralization IC50” value turn out when B1 was run?
Its value is 0.926 µg/mL.

With B2 as the binder, how does the “pseudovirus neutralization IC50” value read?
Its value is > 10 µg/mL.

B3 was tested. Which “pseudovirus neutralization IC50” value did it give?
Its value is > 10 µg/mL.

Which “pseudovirus neutralization IC50” value does the source give for B4 here?
The value was 0.426 µg/mL.

How did the “pseudovirus neutralization IC50” value turn out when B5 was run?
Its value is > 10 µg/mL.

With B6 as the binder, how does the “pseudovirus neutralization IC50” value read?
Its value is 0.135 µg/mL.

With B7 as the binder, how does the “pseudovirus neutralization IC50” value read?
The value was > 10 µg/mL.
